Measured values as given in patent US20240270826A1.

Target: SARS-CoV-2 S1-RBD (adsorbed in ELISA) (SARS-CoV-2 Wuhan)
Assay: ELISA, adsorbed antigen, ACE2-Fc titrated

With “ACE2-Fc (human ACE2 aa18-740 fused to human IgG1 Fc) (from UniProt Q9BYF1 18-740) (Fc fusion)” the EC50 was 0.32 nM.
